PSTVd loop 6 mutant pool in Nicotiana benthamiana

Values reported by Wu et al. 2024 (doi:10.1371/journal.ppat.1012142).

Region: loop 6 of PSTVd (intermediate strain), upper and lower strand joined, each 5' to 3', the first 5 letters being the upper strand, closing pairs included. Wild type: UGACCGCGAG. Varied positions (N): UNNNCGNNNG.

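A pool of all variants was put on leaves of three Nicotiana benthamiana plants. Progeny were sequenced from the inoculated region (day 5), the margin of the inoculated leaf (day 10) and systemic leaves (day 12).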

Numbers give reads per thousand; 0 = not seen among the reads, higher = more abundant.
Each value is the mean of three plants.
"Pool" is the share in the plasmid pool used as inoculum, on the same scale.
The inoculated region was read from the minus strand, the other sites from the plus strand.
The authors trace changes outside the varied positions to PCR and sequencing errors or to mutation in the plant; presence does not show that a variant is infectious alone.
With 36,220-57,551 reads a sample, very low values are single reads.
For reference, wild type rose from 20.7 per thousand in the pool to 195, 198, 203 (inoculated region), 629, 591, 734 (leaf margin) and 942, 870, 868 (systemic leaves).

For UUCAAGAUCG (pool 0.0131) the result was inoculated region 0; leaf margin 0; systemic leaves 0.
For UAACCGGCCG (pool 0.131) the result was inoculated region 0.0959; leaf margin 0; systemic leaves 0.
For UGGUCGUUUG (pool 0.379) the result was inoculated region 0.0528; leaf margin 0; systemic leaves 0.
For UUUCCGGCUG (pool 0.183) the result was inoculated region 0.113; leaf margin 0.0556; systemic leaves 0.
For UAUGCGUCUG (pool 0.327) the result was inoculated region 0.0938; leaf margin 0; systemic leaves 0.
For UGGUCGUGCG (pool 0.196) the result was inoculated region 0.101; leaf margin 0.0169; systemic leaves 0.
For UAGCCGAUCG (pool 0.275) the result was inoculated region 0.114; leaf margin 0.0261; systemic leaves 0.
For UCGGCGUCAG (pool 0.301) the result was inoculated region 0.0952; leaf margin 0.00773; systemic leaves 0.0137.
For UUAGCGGUAG (pool 0.405) the result was inoculated region 0.606; leaf margin 0.0822; systemic leaves 0.
For UCCACGCAUG (pool 0.131) the result was inoculated region 0.0900; leaf margin 0; systemic leaves 0.
For UGCUCGGAUG (pool 0.196) the result was inoculated region 0.0714; leaf margin 0.0261; systemic leaves 0.00599.
For UGACCGGAAG (pool 0.0131) the result was inoculated region 0.0891; leaf margin 0.175; systemic leaves 0.00684.
For UAAGCGAAAG (pool 0.183) the result was inoculated region 0.0768; leaf margin 0; systemic leaves 0.
For UCCGCGGCAG (pool 0.314) the result was inoculated region 0.0891; leaf margin 0; systemic leaves 0.
For UUUACGGCGU (pool 0.0131) the result was inoculated region 0; leaf margin 0; systemic leaves 0.
For UGUUCGAGAG (pool 0.353) the result was inoculated region 0.0956; leaf margin 0.00920; systemic leaves 0.
For UUAGCGGCGG (pool 0.144) the result was inoculated region 0.0890; leaf margin 0.00920; systemic leaves 0.
For UGUUCGUGCG (pool 0.301) the result was inoculated region 0.0416; leaf margin 0.00920; systemic leaves 0.
For UGCUCGCCAG (pool 0.196) the result was inoculated region 0.0836; leaf margin 0.00773; systemic leaves 0.
For UCAGCGAGCG (pool 0.170) the result was inoculated region 0.0417; leaf margin 0; systemic leaves 0.
For UAGACGUCCG (pool 0.340) the result was inoculated region 0.0965; leaf margin 0; systemic leaves 0.
For UGUACGUGAG (pool 0.170) the result was inoculated region 0.648; leaf margin 0.0823; systemic leaves 0.
For UGUUCGCACG (pool 0.196) the result was inoculated region 0.0887; leaf margin 0; systemic leaves 0.00684.
For UUUCCGAAAG (pool 0.157) the result was inoculated region 0.101; leaf margin 0.00920; systemic leaves 0.
For UGGACGCUCG (pool 0.340) the result was inoculated region 0.107; leaf margin 0; systemic leaves 0.
For UUUCCGACAG (pool 0.196) the result was inoculated region 0.0898; leaf margin 0.0387; systemic leaves 0.
For UGGCCGUGCG (pool 0.183) the result was inoculated region 0.143; leaf margin 0.0261; systemic leaves 0.
For UUAACGUGCG (pool 0.209) the result was inoculated region 0.665; leaf margin 0.121; systemic leaves 0.
For UCACCGGUAG (pool 0.196) the result was inoculated region 0.0958; leaf margin 0.0416; systemic leaves 0.
For UGAACGGUGG (pool 0.235) the result was inoculated region 0.126; leaf margin 0.00920; systemic leaves 0.
For UCCUCGUAGG (pool 0.196) the result was inoculated region 0.108; leaf margin 0; systemic leaves 0.
For UGACCGACUG (pool 0.431) the result was inoculated region 0.335; leaf margin 0.242; systemic leaves 0.127.
For UCACCGAUCG (pool 0.222) the result was inoculated region 0.0714; leaf margin 0; systemic leaves 0.
For UGCCCGCCAG (pool 0.105) the result was inoculated region 0.787; leaf margin 0.0938; systemic leaves 0.
For UCAACGGCCG (pool 0.131) the result was inoculated region 0.694; leaf margin 0.0522; systemic leaves 0.
For UAAGCGCUGG (pool 0.157) the result was inoculated region 0.0889; leaf margin 0; systemic leaves 0.
For UAUACGAUGU (pool 0.0131) the result was inoculated region 0; leaf margin 0; systemic leaves 0.
For UGUUCGGUAG (pool 0.183) the result was inoculated region 0.0775; leaf margin 0; systemic leaves 0.
For UCUCCGUGGG (pool 0.170) the result was inoculated region 0.0778; leaf margin 0.00920; systemic leaves 0.
For UCGACGAAUG (pool 0.353) the result was inoculated region 0.0711; leaf margin 0.00920; systemic leaves 0.

A selection of 3 entries from above:

* UUAGCGGUAG (pool 0.405): inoculated region 0.606; leaf margin 0.0822; systemic leaves 0
* UAAGCGAAAG (pool 0.183): inoculated region 0.0768; leaf margin 0; systemic leaves 0
* UGUUCGAGAG (pool 0.353): inoculated region 0.0956; leaf margin 0.00920; systemic leaves 0